In patent US20180325914A1, “INCREASING STORAGE OF VITAMIN A, VITAMIN D AND/OR LIPIDS” (Salk Institute for Biological Studies, priority 2014, published 2018):

System: primary HSCs

Question: `Cc1sc2c(c1C)C(c1ccc(Cl)cc1)=N[C@@H](CC(=O)OC(C)(C)C)c1nnc(C)n1-2` [JQ1, (S)-tert-butyl 2-(4-(4-chlorophenyl)-2,3,9-trimethyl-6H-thieno[3,2-f][1,2,4]triazolo[4,3-a][1,4]diazepin-6-yl)acetate] was tested. Which “log2(fold_change), gene Marveld1” value did it give?
Answer: The value was 0.02774.
